## Zika virus NS2B-NS3: effect of single substitutions on growth in cell culture

Source: Ni et al. 2025 (doi:10.1038/s41467-025-63602-z), supplementary data.

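Pools of virus carrying all single amino acid changes were selected for growth in Huh-7.5 cells. Deep sequencing gave the change in frequency of each mutant relative to wild type, averaged over three replicate libraries (two for positions 207-308). The aim was to find sites where inhibitor-binding pockets cannot change.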

The scanned region of Zika virus MR766 is shown below (positions 1-308): NS2B is 2-131, NS3 begins at position 132.
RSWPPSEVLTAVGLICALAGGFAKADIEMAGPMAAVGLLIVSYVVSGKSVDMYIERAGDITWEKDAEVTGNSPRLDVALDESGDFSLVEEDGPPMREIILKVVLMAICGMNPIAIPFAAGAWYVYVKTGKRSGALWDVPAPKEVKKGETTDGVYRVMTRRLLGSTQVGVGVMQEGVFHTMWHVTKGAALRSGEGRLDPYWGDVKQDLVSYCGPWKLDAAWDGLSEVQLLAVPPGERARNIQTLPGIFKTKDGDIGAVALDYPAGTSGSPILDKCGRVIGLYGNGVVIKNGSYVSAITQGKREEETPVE

Scale: log2 effect, wild type = 0; the lower, the more harmful to the virus. A change reads original residue, position, new residue. Six mutants with high scores were retested singly and none clearly outgrew wild type, so positive values are not proof of better growth.

substitution | log2 effect
N289* | -6.68
N289A | -6.20
N289C | -5.15
N289D | -4.07
N289E | -4.95
N289F | -5.72
N289G | -2.99
N289H | -6.11
N289I | -5.88
N289K | -5.56
N289L | -6.66
N289M | -5.08
N289P | -6.43
N289Q | -4.55
N289R | -6.52
N289S | -4.64
N289T | -6.75
N289V | -6.18
N289W | -4.58
N289Y | -5.97
G290* | -7.96
G290A | -6.47
G290C | -5.70
G290D | -5.46
G290E | -5.64
G290F | -5.51
G290H | -5.01
G290I | -5.07
G290K | -5.41
G290L | -6.92
G290M | -4.97
G290N | -5.30
G290P | -6.06
G290Q | -5.37
G290R | -6.90
G290S | -6.77
G290T | -6.30
G290V | -6.70
G290W | -5.65
G290Y | -4.91
S291* | -6.75
S291A | -0.48
S291C | -2.02
S291D | -3.73
S291E | -0.89
S291F | -5.20
S291G | -2.50
S291H | -4.51
S291I | -4.93
S291K | -5.18
S291L | -5.66
S291M | -1.94
S291N | -3.81
S291P | -5.93
S291Q | 1.88
S291R | -5.01
S291T | -0.34
S291V | -4.36
S291W | -4.89
S291Y | -4.57
Y292* | -6.37
Y292A | -4.90
Y292C | -3.59
Y292D | -4.86
Y292E | -4.21
Y292F | 1.15
Y292G | -4.62
Y292H | -3.96
Y292I | -4.46
Y292K | -4.26
Y292L | -6.14
Y292M | -4.24
Y292N | -4.96
Y292P | -5.65
Y292Q | -4.49
Y292R | -5.25
Y292S | -6.05
Y292T | -4.70
Y292V | -5.24
Y292W | -2.97

The first 5 entries again:

{"substitution": "N289*", "log2 effect": -6.68}
{"substitution": "N289A", "log2 effect": -6.20}
{"substitution": "N289C", "log2 effect": -5.15}
{"substitution": "N289D", "log2 effect": -4.07}
{"substitution": "N289E", "log2 effect": -4.95}

An asterisk is a stop codon; stop codons read about -7, near the floor of the assay. The authors count -1 or higher as tolerated. Position 1 is the last residue of NS2A. The region was split into three libraries (1-103, 104-206, 207-308).